A mixed list of measured activities; the numbers were collected in NIAID ChemDB.

Common to all: growth or infection tests; species: Mycobacterium bovis BCG

Neighbouring rows are from separate reports. An empty or dashed field is not shown. MIC50, MIC90 and the like: level of inhibition, or share of isolates inhibited.

{"compound": "O=C(C1CCN(c2nnc(-n3cccc3)s2)CC1)N1CCC(Cc2ccccc2)CC1", "measure": "MIC", "method": "fluorescence", "mutations": "DprE1 mutant (G248S)", "strain or isolate": "recG", "result": "6.25 µM"}
{"compound": "CCc1ccccc1OCCCON1C(N)=NC(N)=NC1(C)C", "measure": "MIC", "method": "fluorescence", "mutations": "DHFR-overexpressing", "result": ">33.6 µM"}
{"compound": "FC(F)(F)c1cccc(Oc2ccc(Nc3ncnc4ccsc34)cc2)c1", "measure": "MIC50", "method": "luminescence", "result": ">50 µM"}
{"compound": "CCc1nc2ccc(Cl)cn2c1C(=O)NCc1ccc(N2CCC(c3ccc(OC(F)(F)F)cc3)CC2)cc1", "measure": "MIC50", "method": "turbidity", "result": "0.0015 µM"}
{"compound": "CC(C)(C)c1ccc(CCOc2ncnc3ccsc23)cc1", "measure": "MIC50", "method": "luminescence", "result": ">50 µM"}
{"compound": "CC(=O)Nc1ccc(/C=N/n2cn[nH]c2=S)cc1", "measure": "MIC", "setting": "48 h", "method": "broth dilution / resazurin", "result": "125 µg/mL"}
{"compound": "Cc1cc(C)nc(Oc2ccc(Nc3ncnc4ccccc34)cc2)n1", "measure": "MIC50", "method": "luminescence", "result": ">20 µM"}
{"compound": "CCc1cn2c(nc1=O)O[C@@H]1[C@H](F)[C@H]2O[C@@H]1CO", "measure": "MIC25", "method": "resazurin", "result": "50 µg/mL"}
{"compound": "C[C@H]1COC2(CCN(c3nc(=O)c4cc(C(F)(F)F)cc([N+](=O)[O-])c4s3)CC2)O1", "measure": "MIC", "method": "fluorescence", "strain or isolate": "recG", "result": "0.009 µM"}
{"compound": "O=c1[nH]c(=S)c(CO)cn1C1OC(CO)C(O)C1O", "measure": "MIC75", "method": "resazurin", "result": "5 µg/mL"}
{"compound": "c1ccc2c(Nc3ccc(N4CCOCC4)cc3)ncnc2c1", "measure": "MIC50", "method": "luminescence", "result": ">50 µM"}
{"compound": "CCc1cn(C2OC(CO)C(Br)C2F)c(=O)[nH]c1=O", "measure": "MIC80", "method": "resazurin", "result": "100 µg/mL"}
{"compound": "NC(=O)NO", "measure": "MIC100", "method": "visual reading", "result": ">380 µg/mL"}
{"compound": "Cc1ccc(Oc2ccc(Nc3ncnc4cc(F)ccc34)cc2)cc1", "measure": "MIC50", "method": "luminescence", "result": ">20 µM"}
{"compound": "CC(C)(C)c1ccccc1OCCCON1C(N)=NC(N)=NC1(C)C", "measure": "MIC", "method": "fluorescence", "result": "3.6 µM"}

Repeating the final 2 entries:

| compound | measure | setting | method | mutations | strain or isolate | result |
|---|---|---|---|---|---|---|
| Cc1ccc(Oc2ccc(Nc3ncnc4cc(F)ccc34)cc2)cc1 | MIC50 |  | luminescence |  |  | >20 µM |
| CC(C)(C)c1ccccc1OCCCON1C(N)=NC(N)=NC1(C)C | MIC |  | fluorescence |  |  | 3.6 µM |